Reference: patent US20240109955A1 (published 2024)

Key:
Experiment in all cases: cell-based or functional assay
[1] = target: SARS-CoV-2 spike (S) protein of Omicron sublineage BA.2.75 (G446S) (SARS-CoV-2, UniProt P0DTC2 14-1273)
[2] = target: SARS-CoV-2 spike (S) protein of Omicron sublineage BJ.1 (R346T, V445P, G446S) (SARS-CoV-2, UniProt P0DTC2 14-1273)
[3] = target: SARS-CoV-2 spike protein, Omicron variant (B.1.1.529) (SARS-CoV-2, UniProt P0DTC2 14-1273)

B1: MX829 tetravalent, bispecific antibody (two VH/VL pairs of A19-61 and two VH/VL pairs of A23-58H/A23-58L93VGLTG) (bispecific antibody)
chain: DIQMTQSPSSVSASVGDRVIITCRASQGISSWLAWYQQKPGKAPKVLIYDASSLQSGVPSRFSGSGYGTDFTLTISSLQPEDSATYYCQQAKSFPITFGQGTRLEIKGGSSGEIVLTQSPGTLSLSPGERATLSCRASQSVSSSYLAWYQQKPGQAPRLLIYSASSRATGIPDRFSGSGSGTDFTLTISRLEPEDFAVYFCQQYVGLTGWTFGQGTKVEIKGGGGSGGSGSGGGGSASGSGQMQLVQSGPEVKKPGTSVKVSCKASGFTFTSSAVQWVRQRQRLEWIGWIVVGSGNTNYAQKFQERVTITRDMSTSTAYMELSSLRSEDTAVYYCAAPNCSNVVCYDGFDIWGQGTMVTVSSGGSSGQVQLVESGGGVVQPGRSLRLSCAASGFTFSSYAFHWVRQAPGKGLEWVAVISYDGSNQYYADSVKGRFTISRDNSKNTLYLQMNSLRADDTAVYYCARDLAIAVAGTWHYYNGMDVWGQGTTVTVSSASGGSGDKTHTCPPCPAPELLGGPSVFLFPPKPKDTLMISRTPEVTCVVVDVSHEDPEVKFNWYVDGVEVHNAKTKPREEQYNSYVVSVLTVLHQDWLNGKEYKCKVSNKALPAPIEKTISKAKGQPREPQVYTLPPSRDELTKNQVSLTCLVKGFYPSDIAVEWESNGQPENNYKTTPPVLDSDGSFFKKLTVDKSRWQQGNVFSCSVLHEALHSHYTQKSLSLSPG
IC50, pseudovirus neutralization [1]: 1 nM
IC80, pseudovirus neutralization [1]: 3 nM
IC50, pseudovirus neutralization [2]: 16 nM
IC80, pseudovirus neutralization [2]: 113 nM

B2: MX837 tetravalent, trispecific antibody (A19-61, A19-46, A23-58H/A23-58L93VGLTG, A23-58H/A23-58L93VGLTG) (trispecific antibody)
chain 1: QTVVTQEPSFSVSPGGTVTLTCGLSSGSVSTAYFPSWYQQTPGQAPRTLIYGTNTRSSGVPDRFSGSILGNKAALTITGAQADDESDYYCVLYMGRGIVVFGGGTKLTVLGGSSGEIVLTQSPGTLSLSPGERATLSCRASQSVSSSYLAWYQQKPGQAPRLLIYSASSRATGIPDRFSGSGSGTDFTLTISRLEPEDFAVYFCQQYVGLTGWTFGQGTKVEIKGGGGSGGSGSGGGGSASGSGQMQLVQSGPEVKKPGTSVKVSCKASGFTFTSSAVQWVRQRQRLEWIGWIVVGSGNTNYAQKFQERVTITRDMSTSTAYMELSSLRSEDTAVYYCAAPNCSNVVCYDGFDIWGQGTMVTVSSGGSSGQVQLVESGGGVVQPGRSLRLSCAASGFTLSSYGMHWVRQAPGKGLEWVAVISYDGSNKYYVDSVKGRFTISRDNSKNTLYLQMNSLRAEDTAVYYCRWAYWELLPDYYYGMDVWGQGTTVTVSSASGGSGDKTHTCPPCPAPELLGGPSVFLFPPKPKDTLMISRTPEVTCVVVDVSHEDPEVKFNWYVDGVEVHNAKTKPREEQYNSYVVSVLTVLHQDWLNGKEYKCKVSNKALPAPIEKTISKAKGQPREPQVYTLPPCRDELTKNQVSLWCLVKGFYPSDIAVEWESNGQPENNYKTTPPVLDSDGSFFKKLTVDKSRWQQGNVFSCSVLHEALHSHYTQKSLSLSPG
chain 2: DIQMTQSPSSVSASVGDRVIITCRASQGISSWLAWYQQKPGKAPKVLIYDASSLQSGVPSRFSGSGYGTDFTLTISSLQPEDSATYYCQQAKSFPITFGQGTRLEIKGGSSGEIVLTQSPGTLSLSPGERATLSCRASQSVSSSYLAWYQQKPGQAPRLLIYSASSRATGIPDRFSGSGSGTDFTLTISRLEPEDFAVYFCQQYVGLTGWTFGQGTKVEIKGGGGSGGSGSGGGGSASGSGQMQLVQSGPEVKKPGTSVKVSCKASGFTFTSSAVQWVRQRQRLEWIGWIVVGSGNTNYAQKFQERVTITRDMSTSTAYMELSSLRSEDTAVYYCAAPNCSNVVCYDGFDIWGQGTMVTVSSGGSSGQVQLVESGGGVVQPGRSLRLSCAASGFTFSSYAFHWVRQAPGKGLEWVAVISYDGSNQYYADSVKGRFTISRDNSKNTLYLQMNSLRADDTAVYYCARDLAIAVAGTWHYYNGMDVWGQGTTVTVSSASGGSGDKTHTCPPCPAPELLGGPSVFLFPPKPKDTLMISRTPEVTCVVVDVSHEDPEVKFNWYVDGVEVHNAKTKPREEQYNSYVVSVLTVLHQDWLNGKEYKCKVSNKALPAPIEKTISKAKGQPREPQVCTLPPSRDELTKNQVSLSCAVKGFYPSDIAVEWESNGQPENNYKTTPPVLDSDGSFFLVSKLTVDKSRWQQGNVFSCSVLHEALHSHYTQKSLSLSPG
IC50, pseudovirus neutralization [1]: 1 nM
IC80, pseudovirus neutralization [1]: 3 nM
IC50, pseudovirus neutralization [2]: 15 nM
IC80, pseudovirus neutralization [2]: 97 nM

B3: MX834 tetravalent, trispecific antibody (A23-58H/A23-58L93VGLTG, A19-46, A23-58H/A23-58L93VGLTG, A19-61) (trispecific antibody)
chain 1: B2 chain 1
chain 2: B2 chain 1
IC50, pseudovirus neutralization [1]: 1 nM
IC80, pseudovirus neutralization [1]: 2 nM
IC50, pseudovirus neutralization [2]: 3 nM
IC80, pseudovirus neutralization [2]: 87 nM

B4: A23-58.1HC/58.1LC_93VGLTG (antibody, V domains shown)
VH: QMQLVQSGPEVKKPGTSVKVSCKASGFTFTSSAVQWVRQRQRLEWIGWIVVGSGNTNYAQKFQERVTITRDMSTSTAYMELSSLRSEDTAVYYCAAPNCSNVVCYDGFDIWGQGTMVTVSS
VL: EIVLTQSPGTLSLSPGERATLSCRASQSVSSSYLAWYQQKPGQAPRLLIYSASSRATGIPDRFSGSGSGTDFTLTISRLEPEDFAVYFCQQYVGLTGWTFGQGTKVEIK
IC50, pseudovirus neutralization [3]: 3.3 nM
IC80, pseudovirus neutralization [3]: 11.2 nM
